Results of unrelated studies side by side (data: NIAID ChemDB).

Common to all: tests in culture; agent: HIV-1; cells: CEM + CEM-SS; measure: EC50

Two numbers with a dash give a range or band. An empty or dashed field is not shown. ECn is the concentration giving n% inhibition of infection, replication or growth. Neighbouring rows are from separate reports.

SMILES	strain or isolate	changes	method	value
CCCCCCCCCCCCCCCCCCOP(=O)(O)OCCC=C(c1cc(Cl)c(O)c(C(=O)O)c1)c1cc(Cl)c(O)c(C(=O)O)c1	RF		cytopathic effect / XTT	>74 µM
CC1(c2nc3cc(Cl)c(Cl)cc3[nH]2)CCC(C(=O)O)C(C)(C)O1	RF			>20 µM
CN1N=C(N)c2cn([C@@H]3O[C@H](COP(=O)(O)O)[C@@H](O)[C@H]3O)c3ncnc1c23	G-910		syncytia	0.058 µM
CCCCCCCCCCCCCCCC(=O)Nc1cc(S(=O)(=O)O)cc2cc(S(=O)(=O)O)cc(O)c12				27 µM
Cc1cc(C)cc(Cc2c3c([nH]c(=O)c2C#N)OCCC3)c1	LAI		RT activity	>100 µM
Nc1nc(=O)n([C@@H]2C[C@H](O)[C@H](CO)O2)cc1F	LAI		cytopathic effect / MTT	>100 µM
FC(F)(Sc1ncccn1)c1nc2ccccc2o1	OC(RT-L100I)	RT-L100I	cytopathic effect / XTT	4.08 µM
Cc1ccc(C(=O)Nc2ccc(S(=O)(=O)O)c3cc(S(=O)(=O)O)cc(S(=O)(=O)O)c23)cc1NC(=O)c1cccc(NC(=O)Nc2cccc(C(=O)Nc3cc(C(=O)Nc4ccc(S(=O)(=O)O)c5cc(S(=O)(=O)O)cc(S(=O)(=O)O)c45)ccc3C)c2)c1				8 µM
COc1cc(-c2ccc(N=Nc3ccc4c(S(=O)(=O)O)cc(S(=O)(=O)O)c(N)c4c3O)c(OC)c2)ccc1N=Nc1ccc2c(S(=O)(=O)O)cc(S(=O)(=O)O)c(N)c2c1O	G762-3		cytopathic effect / XTT	2.5 µM
CCCCCCCCCCCCCCCCNc1ccn([C@H]2C[C@H](OP(=O)(O)OC[C@H]3O[C@@H](n4cc(C)c(=O)[nH]c4=O)C[C@@H]3N=[N+]=[N-])[C@@H](CO)O2)c(=O)n1			cytopathic effect / XTT	1.08 µM
Cc1cn([C@H]2C=C[C@@H](CO)O2)c(=O)[nH]c1=O	IIIB		RT activity	0.059 µM
COc1ccc2c(c1)OC[C@@H]1c3cc(O)c(OCc4ccc5ccccc5c4)cc3O[C@]21C	RF		cytopathic effect / XTT	>3.35 µM
CCCCCCCCCCCCCCCCOP(=O)(O)OCCC=C(c1cc(Cl)c(O)c(C(=O)O)c1)c1cc(Cl)c(O)c(C(=O)O)c1	RF		cytopathic effect / XTT	>84 µM
CCCCCCCCCCCCCCCC(=O)Nc1ccn([C@H]2CC[C@@H](COP(=O)(O)O[C@H]3C[C@H](n4cc(C)c(=O)[nH]c4=O)O[C@@H]3CO)O2)c(=O)n1	IIIB		cytopathic effect / XTT	0.0644–0.0824 µM
Nc1ncnc2c1nnn2[C@H]1C=CC[C@@H](CO)C1	RF		cytopathic effect / XTT	>50 µg/mL
Oc1cc2c(cc1OCc1ccccc1)O[C@@H]1c3ccccc3OC[C@H]21	RF		cytopathic effect / XTT	>2.48 µM
O=C(O)/C=C/c1ccc(N=Nc2c(S(=O)(=O)O)cc3cc(NC(=O)Nc4ccc5c(O)c(N=Nc6ccc(/C=C/C(=O)O)cc6)c(S(=O)(=O)O)cc5c4)ccc3c2O)cc1	RF		cytopathic effect / XTT	2.5 µM
Clc1cc2nc(C3CCCCO3)[nH]c2cc1Cl	RF			>2 µM
NCCCCCCNC(=O)Cc1cn([C@H]2C=C[C@@H](CO)O2)c(=O)[nH]c1=O	IIIB		cytopathic effect / MTT	>100 µM
Nc1ccn([C@H]2CC[C@@H](CO)O2)c(=O)n1	IIIB		cytopathic effect / XTT	0.0015 µM
Nc1ncnc2c1ncn2[C@H]1C=CC[C@@H](CO)C1	RF		cytopathic effect / XTT	>50 µg/mL
CO[C@H]1N([C@H]2C[C@H](N=[N+]=[N-])[C@@H](CO)O2)C(=O)NC(=O)[C@]1(C)Br	RF		cytopathic effect / XTT	5.79 µM
CCCCCCCCCCCCCCCC(=O)Nc1ccn([C@H]2CC[C@@H](COP(=O)(O)O[C@H]3C[C@H](n4cc(C)c(=O)[nH]c4=O)O[C@@H]3CO)O2)c(=O)n1	DPS-resistant (RT-Y181C)	Diphenyl sulfone-resistant (RT-Y181C)	cytopathic effect / XTT	0.0294 µM
CC(C)=CCOc1cc(NC(=S)c2ccsc2C)ccc1Cl	NL4-3 (RT V106I)	RT-V106I	cytopathic effect / XTT	0.08 µM
Nc1nc2c(ncn2[C@H]2C=CC[C@@H](CO)C2)c(=O)[nH]1	RF		cytopathic effect / XTT	>50 µg/mL
CCCCCCCCCCCCCCCCO[C@H]1N([C@H]2C[C@H](N=[N+]=[N-])[C@@H](CO)O2)C(=O)NC(=O)[C@]1(C)Cl	RF		cytopathic effect / XTT	>31 µM
Nc1nc(=O)n([C@H]2O[C@@H](CO)[C@H](O)[C@H]2O)cc1F	LAI		cytopathic effect / MTT	>100 µM
O=S(=O)(O)n1ccc2c(Cl)c(O)c(O)cc21			cytopathic effect / XTT	10.6 µg/mL
CCCCCCCCCCCCNCC(O)C(O)C(OC1OC(CO)C(O)C(O)C1O)C(O)CO				1 µM
C[C@H](Cn1cnc2c(N)ncnc21)OCP(=O)(O)O	IIIB			0.96 µg/mL
CCCCCCCCCCCCCCCCCC(=O)Nc1ccc2cc(S(=O)(=O)O)cc(S(=O)(=O)O)c2c1				66 µM
Cc1cc(C)cc(C(=O)c2c(C(C)C)c(=O)[nH]c(=O)n2CC2=CCCC2)c1			cytopathic effect / XTT	0.02 µM
NCCCCCCCCCCNC(=O)Cc1cn([C@@H]2C=C[C@H](CO)O2)c(=O)[nH]c1=O	LAI		cytopathic effect / MTT	33 µM
O=c1ccn([C@H]2C=C[C@@H](CO)O2)c(=O)n1CC#CCN1CCN(CCNC(=S)Nc2ccc(Br)cn2)CC1	IIIB		RT activity	>73 µM
Cn1cc([N+](=O)[O-])cc1C(=O)Nc1ccc(S(=O)(=O)O)c2cc(S(=O)(=O)O)ccc12	RF		cytopathic effect / XTT	>500 µM
CC(C)=CCOc1cc(NC(=S)c2ccoc2C)ccc1Cl	RF		cytopathic effect / XTT	0.02 µM
Cn1cc(N)cc1C(=O)Nc1ccc(S(=O)(=O)O)c2cc(S(=O)(=O)O)ccc12	RF		cytopathic effect / XTT	>300 µM
Cc1cccc(Cc2c3c([nH]c(=O)c2C#N)OCC3)c1	LAI		RT activity	>100 µM
CC(C)=CCOc1cc(NC(=S)c2ccoc2C)ccc1Cl	NL4-3	RT-Y188C	p24	0.01 µM
O=C(N(Cc1ccccc1)[C@@H](CO)Cc1ccccc1)N(Cc1ccccc1)[C@@H](CO)Cc1ccccc1	LAI		cytopathic effect	0.08 µM
OB(O)CCCCn1cnc2c(Cl)nc(Cl)nc21	IIIB		plaque count	0.99 µM
COc1cc(-c2ccc(N=Nc3ccc4c(S(=O)(=O)O)cc(S(=O)(=O)O)c(N)c4c3O)c(OC)c2)ccc1N=Nc1ccc2c(S(=O)(=O)O)cc(S(=O)(=O)O)c(N)c2c1O	RF		cytopathic effect / XTT	1.7 µM
CCc1c(C)nc(Cl)c([N+](=O)[O-])c1S(=O)c1cc(C)cc(C)c1	LAI		cytopathic effect	3 µM
COc1ccc2c(c1)OC[C@]1(C)c3cc(O)c(OCc4ccccc4)cc3O[C@H]21	RF		cytopathic effect / XTT	>10.1 µM
CCO[C@H]1N([C@H]2C[C@H](N=[N+]=[N-])[C@@H](CO)O2)C(=O)NC(=O)[C@@]1(C)Cl	RF		cytopathic effect / XTT	>200 µM
O=C(Nc1ccccc1)c1cc(S(=O)(=O)Nc2nc3ncccc3[nH]2)c(SSc2cc(Cl)c(C(=O)Nc3ccccc3)cc2S(=O)(=O)Nc2nc3ncccc3[nH]2)cc1Cl			cytopathic effect / MTT	113 µM
Nc1nc2c(ncn2C[C@H](CO)OCP(=O)(O)O)c(=O)[nH]1	LAV-Bru		cytopathic effect / XTT	500 µM
CCCCCCCCCCCCCCCC(=O)Nc1ccn([C@H]2CC[C@@H](COP(=O)(O)OC[C@H]3O[C@@H](n4cc(C)c(=O)[nH]c4=O)C[C@@H]3N=[N+]=[N-])O2)c(=O)n1	IIIB		cytopathic effect / XTT	0.15–71 µM
Nc1nc(NC2CC2)c2ncn([C@H]3C=CC[C@@H](CO)C3)c2n1	RF		cytopathic effect / XTT	>50 µg/mL
CCc1c(OC)nc(OC)c(C#N)c1Cc1cc(C)cc(C)c1	LAI		RT activity	>100 µM
CC(C)O[C@H]1N([C@H]2C[C@H](N=[N+]=[N-])[C@@H](CO)O2)C(=O)NC(=O)[C@]1(C)Cl	RF		cytopathic effect / XTT	>200 µM
CC1(c2nc3ccccc3[nH]2)CCC(C(N)=O)C(C)(C)O1	RF			>0.063 µM
Nc1nc(=O)n([C@H]2O[C@@H](CO)[C@@H](O)[C@@H]2O)cc1F	LAI		cytopathic effect / MTT	>100 µM
Oc1ccc(-c2oc3cc(O)cc4c3c2-c2cc(O)cc(O)c2[C@H](c2ccc(O)cc2)[C@@H]4O)cc1	RF		cytopathic effect / XTT	>13 µg/mL
Cn1cc(NC(=O)c2cc([N+](=O)[O-])cn2C)cc1C(=O)Nc1cc(S(=O)(=O)O)c2cc(S(=O)(=O)O)cc(S(=O)(=O)O)c2c1	RF		cytopathic effect / XTT	256 µM
Nc1ccn([C@H]2CC[C@@H](CO)O2)c(=O)n1	SK1			0.0254 µM
O=c1ccn([C@H]2C=C[C@@H](CO)O2)c(=O)n1CCCCCCN1CCN(CCNC(=S)Nc2ccc(Br)cn2)CC1	IIIB		RT activity	15 µM
C/C=C(\C)C(=O)c1c(O)c2c(c3c(-c4ccccc4)cc(=O)oc13)OC(C)(C)C=C2	RF		cytopathic effect	8 µg/mL
Cn1cc(NC(=O)Nc2cc(C(=O)Nc3cc(C(=O)Nc4ccc(P(=O)(O)O)c5cc(P(=O)(O)O)ccc45)n(C)c3)n(C)c2)cc1C(=O)Nc1cc(C(=O)Nc2ccc(P(=O)(O)O)c3cc(P(=O)(O)O)ccc23)n(C)c1	RF		cytopathic effect / XTT	3.9 µM
CC(C)=CCN1Cc2cccc3[nH]c(=O)n(c23)CC1C	UC040-R (RT-Y181C)	RT-Y181C	cytopathic effect / XTT	2 µM
CCCCCCCCCCCCCCCC(=O)Nc1ccn([C@H]2C[C@H](OP(=O)(O)OC[C@H]3O[C@@H](n4cc(C)c(=O)[nH]c4=O)C[C@@H]3N=[N+]=[N-])[C@@H](CO)O2)c(=O)n1	IIIB		cytopathic effect / XTT	0.384–3.54 µM
CC(C)(C)NC(=O)c1c(CCC(O)Cc2ccc3ccccc3c2C(=O)NC(C)(C)C)ccc2ccccc12				11.5 µM
CCCCCCCCCCCCCC(=O)Nc1cc(S(=O)(=O)O)cc2cc(S(=O)(=O)O)cc(O)c12				150 µM
NCCCCCCCCCCNC(=O)Cc1cn([C@H]2C=C[C@@H](CO)O2)c(=O)[nH]c1=O	IIIB		cytopathic effect / MTT	>100 µM
Nc1nc(N)c2ncn([C@H]3C=CC[C@@H](CO)C3)c2n1	RF		cytopathic effect / XTT	>50 µg/mL
O=c1ccn([C@H]2C=C[C@@H](CO)O2)c(=O)n1CCCN1CCN(CCNC(=S)Nc2ccc(Br)cn2)CC1	IIIB		RT activity	>100 µM
Cn1cc(NC(=O)Nc2cc(C(=O)Nc3cc(C(=O)Nc4cc(S(=O)(=O)O)c5cc(S(=O)(=O)O)cc(S(=O)(=O)O)c5c4)n(C)c3)n(C)c2)cc1C(=O)Nc1cc(C(=O)Nc2cc(S(=O)(=O)O)c3cc(S(=O)(=O)O)cc(S(=O)(=O)O)c3c2)n(C)c1	G691-2		cytopathic effect / XTT	0.1 µM
CCc1c(C(=O)c2cc(C)cc(C)c2)n(CC2CC=CC2)c(=O)[nH]c1=O	RF		cytopathic effect / XTT	0.002 µM

4 of the rows above, restated:

| SMILES | strain or isolate | changes | method | value |
|---|---|---|---|---|
| Nc1nc(NC2CC2)c2ncn([C@H]3C=CC[C@@H](CO)C3)c2n1 | RF |  | cytopathic effect / XTT | >50 µg/mL |
| Nc1ccn([C@H]2CC[C@@H](CO)O2)c(=O)n1 | IIIB |  | cytopathic effect / XTT | 0.0015 µM |
| CCCCCCCCCCCCCC(=O)Nc1cc(S(=O)(=O)O)cc2cc(S(=O)(=O)O)cc(O)c12 |  |  |  | 150 µM |
| Nc1nc(=O)n([C@H]2O[C@@H](CO)[C@@H](O)[C@@H]2O)cc1F | LAI |  | cytopathic effect / MTT | >100 µM |